# Data from patent US20190040083A1 (priority 2016, published 2019).
# Tests used:
# [1] = tested on: Staphylococcus aureus ATCC 29213; settings: S. aureus ATCC 29213; 16-20 h incubation; mode of three experiments
# P. aeruginosa NCTC 13437 = experiment: MIC broth microdilution, P. aeruginosa NCTC 13437; settings: 16-20 h incubation, mode of three experiments
# [2] = tested on: Enterobacter cloacae NCTC 13406; settings: E. cloacae NCTC 13406; 16-20 h incubation; mode of three experiments
# [3] = tested on: Pseudomonas aeruginosa ATCC 27853; settings: P. aeruginosa ATCC 27853; 16-20 h incubation; mode of three experiments
# [4] = tested on: Escherichia coli ATCC 25922; settings: E. coli ATCC 25922; 16-20 h incubation; mode of three experiments
# [5] = tested on: Acinetobacter baumannii NCTC 13420; settings: A. baumannii NCTC 13420; 16-20 h incubation; mode of three experiments
# [6] = tested on: Streptococcus pneumoniae ATCC 49619; settings: S. pneumoniae ATCC 49619; 16-20 h incubation; mode of three experiments
# [7] = tested on: Klebsiella pneumoniae ATCC 700603; settings: K. pneumoniae ATCC 700603; 16-20 h incubation; mode of three experiments
# [8] = tested on: Haemophilus influenzae ATCC 49247; settings: H. influenzae ATCC 49247; 16-20 h incubation; mode of three experiments
# [9] = tested on: Acinetobacter baumannii ATCC 19606; settings: A. baumannii ATCC 19606; 16-20 h incubation; mode of three experiments
Structure (SMILES),MIC [1],MIC (P. aeruginosa NCTC 13437),MIC [2],MIC [3],MIC [4],MIC [5],MIC [6],MIC [7],MIC [8],MIC [9]
N#Cc1ccc2ccc(=O)n(CCN3CC[C@@H]4[C@H](C3)OC(=O)N4c3ccc4c(n3)NC(=O)CO4)c2c1 (relative stereo),A (an MIC (in μg/mL) of less or equal to 1 is assigned the letter A),B (a MIC of from 1 to 10 is assigned the letter B),B (a MIC of from 1 to 10 is assigned the letter B),B (a MIC of from 1 to 10 is assigned the letter B),A (an MIC (in μg/mL) of less or equal to 1 is assigned the letter A),A (an MIC (in μg/mL) of less or equal to 1 is assigned the letter A),A (an MIC (in μg/mL) of less or equal to 1 is assigned the letter A),C (a MIC of from 10 to 100 is assigned the letter C),A (an MIC (in μg/mL) of less or equal to 1 is assigned the letter A),A (an MIC (in μg/mL) of less or equal to 1 is assigned the letter A)
COc1ccc2ccc(=O)n(CCN3CC[C@@H]4[C@H](C3)OC(=O)N4c3ccc4c(n3)NC(=O)CO4)c2n1 (relative stereo),A (an MIC (in μg/mL) of less or equal to 1 is assigned the letter A),B (a MIC of from 1 to 10 is assigned the letter B),B (a MIC of from 1 to 10 is assigned the letter B),C (a MIC of from 10 to 100 is assigned the letter C),B (a MIC of from 1 to 10 is assigned the letter B),A (an MIC (in μg/mL) of less or equal to 1 is assigned the letter A),A (an MIC (in μg/mL) of less or equal to 1 is assigned the letter A),C (a MIC of from 10 to 100 is assigned the letter C),B (a MIC of from 1 to 10 is assigned the letter B),A (an MIC (in μg/mL) of less or equal to 1 is assigned the letter A)
COc1ncc2ccc(=O)n(CCN3CC[C@@H]4[C@@H](C3)OC(=O)N4c3ccc4c(n3)NC(=O)CO4)c2n1 (relative stereo),A (an MIC (in μg/mL) of less or equal to 1 is assigned the letter A),C (a MIC of from 10 to 100 is assigned the letter C),C (a MIC of from 10 to 100 is assigned the letter C),C (a MIC of from 10 to 100 is assigned the letter C),C (a MIC of from 10 to 100 is assigned the letter C),B (a MIC of from 1 to 10 is assigned the letter B),A (an MIC (in μg/mL) of less or equal to 1 is assigned the letter A),C (a MIC of from 10 to 100 is assigned the letter C),B (a MIC of from 1 to 10 is assigned the letter B),B (a MIC of from 1 to 10 is assigned the letter B)
COc1ncc2ccc(=O)n(CCN3CC[C@@H]4[C@H](C3)OC(=O)N4c3ccc4c(n3)NC(=O)CO4)c2n1 (relative stereo),A (an MIC (in μg/mL) of less or equal to 1 is assigned the letter A),C (a MIC of from 10 to 100 is assigned the letter C),C (a MIC of from 10 to 100 is assigned the letter C),C (a MIC of from 10 to 100 is assigned the letter C),C (a MIC of from 10 to 100 is assigned the letter C),B (a MIC of from 1 to 10 is assigned the letter B),A (an MIC (in μg/mL) of less or equal to 1 is assigned the letter A),C (a MIC of from 10 to 100 is assigned the letter C),B (a MIC of from 1 to 10 is assigned the letter B),B (a MIC of from 1 to 10 is assigned the letter B)
COc1cnc2ccc(=O)n(CCN3CC[C@@H]4[C@H](C3)OC(=O)N4c3ccc4c(n3)NC(=O)CO4)c2c1 (relative stereo),A (an MIC (in μg/mL) of less or equal to 1 is assigned the letter A),B (a MIC of from 1 to 10 is assigned the letter B),C (a MIC of from 10 to 100 is assigned the letter C),C (a MIC of from 10 to 100 is assigned the letter C),B (a MIC of from 1 to 10 is assigned the letter B),A (an MIC (in μg/mL) of less or equal to 1 is assigned the letter A),A (an MIC (in μg/mL) of less or equal to 1 is assigned the letter A),C (a MIC of from 10 to 100 is assigned the letter C),A (an MIC (in μg/mL) of less or equal to 1 is assigned the letter A),B (a MIC of from 1 to 10 is assigned the letter B)

# This is a selection: effects in other tests are not listed, and their absence says nothing.
